The record followed here is PMC6271856, “Leishmanicidal Evaluation of Tetrahydroprotoberberine and Spirocyclic Erythrina-Alkaloids” (Molecules, 2014).

The subject of this test is Leishmania amazonensis promastigote forms. The experiment in a line: Leishmanicidal MTT assay on promastigote forms. It is filed as cell-based.

Under “CC50 J774 macrophages / IC50 L. amazonensis promastigotes”, `COC1CC23C(=CC(=O)N2CCc2cc4c(cc23)OCO4)C2OC12` (centres unmarked) yielded an SI (Selectivity Index = CC50 drug/IC50 drug) of 0.98. The “L. amazonensis IC50” value (promastigote forms, 48 h treatment, MTT) came to 48.17 µg/mL.
